PubChem BioAssay AID624099 – ICCB-Longwood – 2012

Screen: 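Human genes that papillomavirus E2 requires to repress the HPV18 LCR promoter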 (primary screen)
Cell system: human C33A cervical carcinoma cells (HPV-negative) stably expressing BPV1 E2 and an HPV18 LCR luciferase reporter
Reagent: siRNA pool against human genes, 40 nM
Time to read-out: 72 h
Detection: 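HPV18 LCR reporter light per well, converted to plate-wise z-scores that exclude control wells, and averaged over triplicate plates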
Reading the numbers: mean z-score and z-score: higher = stronger reporter signal, weaker E2 silencing
Hit rule: 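Mean z ≥ 2 together with z ≥ 2 in two or more of the three replicates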
Here is a random part of about 21,000 reagents tested. 497 of all reagents (2.4%) count as active. 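Higher z means weaker E2 silencing; only reporter increases were scored, and knock-downs that hurt cell survival may mask genuine repressor factors.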 Unmarked entries are inactive. No sequences are given here.

gene knocked down,mean z-score,"z-score, replicate A","z-score, replicate B","z-score, replicate C"
GPX4 (glutathione peroxidase 4),0.27,-0.27,-0.16,1.23
CD207 (CD207 molecule),2.39 (active),2.75,2.17,2.26
FAM107B (family with sequence similarity 107 member B),-1.09,-1.02,-1.16,-1.08
LY86 (lymphocyte antigen 86),-0.43,-0.43,-0.28,-0.57
KCTD5 (potassium channel tetramerization domain containing 5),1.13,1.06,1.03,1.3
OLR1 (oxidized low density lipoprotein receptor 1),-0.1,-0.04,0.04,-0.3
RS1 (retinoschisin 1),1.69,1.42,1.92,1.72
CABLES2 (Cdk5 and Abl enzyme substrate 2),0.48,0.7,0.31,0.43
CSRNP3 (cysteine and serine rich nuclear protein 3),0.2,-0.13,0.31,0.42
LRCH2,-0.42,-0.53,-0.5,-0.23
PRR12 (proline rich 12),-0.91,-1.27,-0.85,-0.61
LOC283586 (retired record),-0.27,-0.2,-0.57,-0.03
PIGV (phosphatidylinositol glycan anchor biosynthesis class V),-0.25,-0.46,-0.25,-0.05
AD7C-NTP (retired record),0.2,-0.16,0.39,0.38
ARHGEF19 (Rho guanine nucleotide exchange factor 19),0.35,0.51,0.21,0.34
IFNA4 (interferon alpha 4),-0.15,-0.33,-0.12,0
TMEM117 (transmembrane protein 117),1.05,0.94,1.09,1.13
NPFFR2 (neuropeptide FF receptor 2),-0.48,-0.61,-0.41,-0.41
FBXW12 (F-box and WD repeat domain containing 12),-0.64,-0.48,-0.74,-0.7
LINC00858 (long independently transcribed non-coding RNA 858),-1.45,-1.47,-1.12,-1.78
GCLM (glutamate-cysteine ligase modifier subunit),0.45,0.64,0.36,0.35
STAC3 (SH3 and cysteine rich domain 3),0.3,0.33,0.33,0.25
TXLNB (taxilin beta),-0.67,-0.47,-0.47,-1.07
VXN (vexin),0.43,0.81,-0.09,0.55
PPP1R36 (protein phosphatase 1 regulatory subunit 36),0.2,0.08,0.31,0.21
LOC402539 (retired record),-0.79,-0.76,-0.55,-1.05
POGK (pogo transposable element derived with KRAB domain),-0.09,-0.13,-0.14,-0.01
LOC402515 (retired record),0.13,0.48,0,-0.09
ZFYVE21 (zinc finger FYVE-type containing 21),0.95,1.03,1.27,0.55
CC2D1B (coiled-coil and C2 domain containing 1B),-0.78,-0.49,-1.04,-0.8
LINC01548 (long independently transcribed non-coding RNA 1548),1.34,1.23,1.19,1.59
NPEPPS (aminopeptidase puromycin sensitive),-0.74,-0.77,-0.81,-0.63
TENT5A (terminal nucleotidyltransferase 5A),-1.4,-1.77,-1.47,-0.95
ZDHHC6 (zDHHC palmitoyltransferase 6),0.72,0.63,0.37,1.15
"MN1 (MN1 proto-oncogene, transcriptional regulator)",0,-0.1,0.04,0.07
KRT38 (keratin 38),-1.34,-1.41,-1.31,-1.3
"B3GAT1 (beta-1,3-glucuronyltransferase 1)",-1.16,-1.14,-1.02,-1.32
DGCR2 (DiGeorge syndrome critical region gene 2),1.44,1.69,1.16,1.47
LOC387886 (retired record),0.13,-0.23,0.52,0.09
LOC388334 (retired record),0.45,0.75,0.25,0.35
AP1AR,0.61,0.83,0.28,0.73
SPANXA2 (SPANX family member A2),-0.51,-1.15,0.03,-0.39
DCAF4L1 (DDB1 and CUL4 associated factor 4 like 1),0.33,0.15,0.11,0.74
PGM1 (phosphoglucomutase 1),-0.93,-1.17,-0.78,-0.84
PEX3 (peroxisomal biogenesis factor 3),-0.65,-0.46,-0.56,-0.94
ZNF837 (zinc finger protein 837),1.01,1.11,1.02,0.9
C1orf35 (chromosome 1 open reading frame 35),0.74,0.53,1.09,0.6
ARL2BP (ARF like GTPase 2 binding protein),-0.57,-0.43,-0.83,-0.44
TSPYL1 (TSPY like 1),-0.02,0.11,-0.23,0.08
EVPLL (envoplakin like),0.17,-0.04,0.37,0.18
PODNL1 (podocan like 1),3.66 (active),4.26,4.25,2.46
"NPDC1 (neural proliferation, differentiation and control 1)",-0.25,-0.08,-0.07,-0.59
CDIP1 (cell death inducing p53 target 1),-0.34,-0.56,-0.54,0.08
LOC143158 (retired record),-1.03,-1.21,-1.48,-0.38
HDAC6 (histone deacetylase 6),0.53,0.81,0.43,0.35
PLK2 (polo like kinase 2),-0.89,-0.29,-1.22,-1.17
OR8J1 (olfactory receptor family 8 subfamily J member 1),-0.53,-0.46,-0.59,-0.55

6 of these entries, reformatted.
OLR1 (oxidized low density lipoprotein receptor 1) → mean z-score: -0.1; z-score, replicate A: -0.04; z-score, replicate B: 0.04; z-score, replicate C: -0.3
RS1 (retinoschisin 1) → mean z-score: 1.69; z-score, replicate A: 1.42; z-score, replicate B: 1.92; z-score, replicate C: 1.72
CABLES2 (Cdk5 and Abl enzyme substrate 2) → mean z-score: 0.48; z-score, replicate A: 0.7; z-score, replicate B: 0.31; z-score, replicate C: 0.43
CSRNP3 (cysteine and serine rich nuclear protein 3) → mean z-score: 0.2; z-score, replicate A: -0.13; z-score, replicate B: 0.31; z-score, replicate C: 0.42
LRCH2 → mean z-score: -0.42; z-score, replicate A: -0.53; z-score, replicate B: -0.5; z-score, replicate C: -0.23
PRR12 (proline rich 12) → mean z-score: -0.91; z-score, replicate A: -1.27; z-score, replicate B: -0.85; z-score, replicate C: -0.61
